# Share of PSTVd loop 6 variants by leaf site

Values reported by Wu et al. 2024 (doi:10.1371/journal.ppat.1012142).

PSTVd intermediate strain, loop 6: wild type UGACCGCGAG, pool pattern UNNNCGNNNG; upper and lower strand joined, each 5' to 3', the first 5 letters being the upper strand, closing pairs included.

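Three N. benthamiana plants were inoculated with the whole mutant pool. Progeny were sequenced from the inoculated region (day 5), the margin of the inoculated leaf (day 10) and systemic leaves (day 12).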

Values are reads per thousand in the sample; higher means more abundant, 0 means not found.
Each site shows the three plants.
"Pool" is the share in the plasmid pool used as inoculum, on the same scale.
The inoculated region was read from the minus strand, the other sites from the plus strand.
IR is the inoculated region, LM the leaf margin, Sys the systemic leaves.
With 36,220-57,551 reads a sample, very low values are single reads.
The authors trace changes outside the varied positions to PCR and sequencing errors or to mutation in the plant; presence does not show that a variant is infectious alone.
For reference, wild type rose from 20.7 per thousand in the pool to 195, 198, 203 (inoculated region), 629, 591, 734 (leaf margin) and 942, 870, 868 (systemic leaves).

sequence | pool | IR | LM | Sys
GGACCGCGAG | 0.0261 | 0.261 0.269 0.148 | 0.387 0.984 0.627 | 0.916 0.949 1.03
GGACCGCGGG | 0.0131 | 0.0174 0 0 | 0 0 0 | 0 0 0
GGACCGCGUG | 0.0131 | 0.504 0.683 0.387 | 0.0552 0.0504 0.139 | 0 0.0404 0.0820
GGACCGCUUG | 0.0261 | 0.0521 0.0359 0.0369 | 0 0 0 | 0 0 0
GGACCGGACG | 0.0131 | 0.0174 0.0180 0 | 0 0 0.0232 | 0 0 0
GGACCGGAGG | 0.0131 | 0.0348 0.0180 0.0184 | 0 0 0 | 0 0 0
GGACCGGCCG | 0.0261 | 0.0348 0.0359 0 | 0 0 0 | 0 0 0
GGACCGGGAG | 0.0261 | 0 0.0359 0 | 0 0 0 | 0 0 0
GGACCGGGGG | 0.0131 | 0 0.0180 0 | 0 0.0252 0 | 0 0 0
GGACCGGUAG | 0.0131 | 0.0348 0.0359 0.0184 | 0 0 0 | 0 0 0
GGACCGUAGG | 0.0131 | 0.0348 0.0359 0.0184 | 0 0 0 | 0 0 0
GGACCGUAUG | 0.0261 | 0.0521 0.0359 0 | 0.0552 0 0 | 0 0.0202 0
GGACCGUCUG | 0.0131 | 0.0348 0.0180 0 | 0 0 0 | 0 0 0
GGACCGUGAG | 0.0261 | 0.591 0.539 0.387 | 0.0552 0.151 0.0696 | 0 0 0
GGACCGUGUG | 0.0131 | 0.0174 0.0359 0.0184 | 0 0 0 | 0 0 0
GGACCGUUGG | 0.0131 | 0.0174 0.0359 0 | 0 0 0 | 0 0 0
GGACCGUUUG | 0.0261 | 0.0174 0 0 | 0 0 0 | 0 0 0
GGCCCGCGAG | 0.0131 | 0 0 0 | 0 0 0 | 0 0 0
GGGCCGCGCG | 0.0131 | 0 0 0 | 0 0 0 | 0 0 0
GGUCCGGCCG | 0.0131 | 0 0 0 | 0 0 0 | 0 0 0
GUACCGGUUG | 0.0131 | 0 0 0 | 0 0 0 | 0 0 0
GUAUCGUUAG | 0.0131 | 0 0 0 | 0 0 0 | 0 0 0
GUCCCGAAAG | 0.0131 | 0 0 0 | 0 0 0 | 0 0 0
GUCGCGACCG | 0.0131 | 0 0 0 | 0 0 0 | 0 0 0
GUCGCGAUGG | 0.0131 | 0 0 0 | 0 0 0 | 0 0 0
GUCGCGUUGG | 0.0131 | 0 0 0 | 0 0 0 | 0 0 0
GUGCCGGCAG | 0.0131 | 0 0 0 | 0 0 0 | 0 0 0
GUUCCGCGGG | 0.0131 | 0 0 0 | 0 0 0 | 0 0 0
UAAACGAAAG | 0.170 | 0.747 0.611 0.627 | 0.138 0.151 0.116 | 0 0 0.0410
UAAACGAACG | 0.131 | 0.678 0.575 0.572 | 0.0552 0.151 0.0696 | 0.0359 0 0.0205
UAAACGAAGG | 0.0915 | 0.104 0.0180 0 | 0 0 0.0464 | 0 0 0
UAAACGAAUG | 0.248 | 0.139 0.0359 0.148 | 0 0 0 | 0 0 0
UAAACGACAG | 0.131 | 0.573 0.772 0.535 | 0.138 0.126 0.0928 | 0.0180 0 0.0205
UAAACGACCG | 0.170 | 0.591 0.683 0.443 | 0.110 0.0504 0.0464 | 0 0.0808 0.0615
UAAACGACGG | 0.105 | 0.0695 0.0898 0.0369 | 0.0276 0 0 | 0 0 0
UAAACGACUG | 0.222 | 0.139 0.0539 0.0369 | 0 0 0 | 0 0 0
UAAACGAGAG | 0.170 | 0.678 0.593 0.479 | 0.0552 0.0504 0.0696 | 0 0 0
UAAACGAGCG | 0.131 | 0.469 0.629 0.535 | 0.110 0.101 0.0232 | 0.0180 0.0404 0.0820
UAAACGAGGG | 0.144 | 0.0348 0.126 0.0738 | 0 0 0.0464 | 0 0 0
UAAACGAGUG | 0.157 | 0.695 0.593 0.609 | 0.0276 0 0 | 0 0.0606 0
UAAACGAUAG | 0.183 | 0.712 0.808 0.627 | 0.0828 0.0757 0.186 | 0.0359 0.0606 0
UAAACGAUCG | 0.209 | 0.695 0.683 0.387 | 0.0276 0.0757 0.0464 | 0.0180 0.0606 0.0820
UAAACGAUGG | 0.248 | 0.191 0.162 0.0553 | 0 0 0.0232 | 0 0 0
UAAACGAUUG | 0.261 | 0.0695 0.180 0.0369 | 0 0 0.0928 | 0 0 0
UAAACGCAAG | 0.0654 | 0.643 4.22 5.79 | 0 1.46 0.975 | 0.144 0.404 0.554
UAAACGCACG | 0.105 | 0.660 0.683 0.406 | 0.0276 0.0757 0.0696 | 0 0.0606 0.0410
UAAACGCAGG | 0.105 | 0.851 0.665 0.461 | 0.138 0 0 | 0.0180 0.0606 0.0615
UAAACGCAUG | 0.170 | 0.591 0.611 0.424 | 0.0828 0.202 0.139 | 0 0.101 0.0410
UAAACGCCAG | 0.131 | 0.556 0.431 0.553 | 0.0552 0.0757 0.0696 | 0.0180 0.0404 0.0205
UAAACGCCCG | 0.157 | 0.712 0.790 0.479 | 0.193 0.0252 0.0696 | 0 0 0
UAAACGCCGG | 0.0784 | 0.104 0.0719 0.0553 | 0 0 0 | 0 0 0
UAAACGCCUG | 0.0915 | 0.0869 0.0539 0.166 | 0.0276 0 0 | 0 0 0
UAAACGCGAG | 0.196 | 0.0869 0.108 0.0553 | 1.63 0.0504 0.0232 | 0.0359 0.0606 0
UAAACGCGCG | 0.0654 | 0.747 0.521 0.664 | 0.0828 0.126 0.0928 | 0.0359 0.0606 0
UAAACGCGGG | 0.131 | 0.0695 0.108 0.148 | 0.0828 0 0.0232 | 0 0 0.0205
UAAACGCGUG | 0.183 | 0.608 0.539 0.609 | 0.0552 0.0757 0.116 | 0.0180 0.0606 0.0615
UAAACGCUAG | 0.131 | 0.695 0.683 0.424 | 0.0552 0.0504 0.116 | 0 0.0606 0.0410
UAAACGCUCG | 0.209 | 0.626 0.701 0.609 | 0.0552 0.0757 0.0928 | 0 0 0
UAAACGCUGG | 0.105 | 0.191 0.0719 0.0738 | 0 0 0 | 0 0 0
UAAACGCUUG | 0.235 | 0.0695 0.0719 0.0738 | 0 0 0.0232 | 0 0 0
UAAACGGAAG | 0.131 | 0.834 0.808 0.959 | 0.0552 0.202 0.0696 | 0 0.0808 0.0820
UAAACGGACG | 0.196 | 0.591 4.51 5.42 | 13.5 1.36 0.928 | 0.180 0.646 0.410
UAAACGGAGG | 0.118 | 0.730 0.557 0.572 | 0.0828 0.0757 0.0232 | 0 0 0
UAAACGGAUG | 0.327 | 0.573 0.629 0.350 | 0.166 0.0252 0.0928 | 0.0359 0.0404 0.0205
UAAACGGCAG | 0.118 | 0.765 0.575 0.553 | 0.110 0.101 0 | 0 0 0
UAAACGGCCG | 0.131 | 0.765 0.754 0.627 | 0.166 0.0252 0.0696 | 0 0.0606 0

The first 3 entries again:

| sequence | pool | IR | LM | Sys |
|---|---|---|---|---|
| GGACCGCGAG | 0.0261 | 0.261 0.269 0.148 | 0.387 0.984 0.627 | 0.916 0.949 1.03 |
| GGACCGCGGG | 0.0131 | 0.0174 0 0 | 0 0 0 | 0 0 0 |
| GGACCGCGUG | 0.0131 | 0.504 0.683 0.387 | 0.0552 0.0504 0.139 | 0 0.0404 0.0820 |